Measurements reported in PubChem BioAssay AID1259414 (Drosophila RNAi Screening Center, 2018)

Test: 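Genome-wide screen for host control of endosymbiont load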 (primary screen)
Cell system: Drosophila JW18 cells infected with Wolbachia
Knock-down reagent: long dsRNA against Drosophila genes, 0.25 µg dsRNA per well of a 384-well plate
Time to read-out: 5 days
Conditions: cells persistently infected with Wolbachia before knock-down; no added drug
Measurement: 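Imaged fluorescence in situ signal for Wolbachia 23S rRNA per DAPI-counted host cell, given as a robust z-score within each plate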
Direction: Wolbachia per cell robust z: higher = more Wolbachia per host cell than the plate typical
Call rule: 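Hit when robust z is 1.5 or more, or -1.5 or less, in at least two of three replicates; excludes dsRNAs with several or no targets, genes not expressed in JW18 and well A1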
The screen tested about 24,000 reagents; this is a random part of those with a known target gene and a result. Of all reagents, about 1,210 (5%) were called active. 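Inactive calls also include excluded dsRNAs with several or no targets, genes unexpressed in JW18, and well A1, regardless of score.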 A plus sign joins genes that one reagent is predicted to hit.

eIF2gamma + Su(var)3-9 [DRSC13081]: Wolbachia per cell robust z, rep 1 = 1.69; Wolbachia per cell robust z, rep 2 = 1.18; Wolbachia per cell robust z, rep 3 = 2.13; Outcome = active
eIF2gamma + Su(var)3-9 [DRSC16873]: Wolbachia per cell robust z, rep 1 = 0.477; Wolbachia per cell robust z, rep 2 = 1.47; Wolbachia per cell robust z, rep 3 = -0.913; Outcome = inactive
eIF2gamma + Su(var)3-9 [DRSC27837]: Wolbachia per cell robust z, rep 1 = 0.728; Wolbachia per cell robust z, rep 2 = 1.55; Wolbachia per cell robust z, rep 3 = 2.21; Outcome = active
CG14309 (GeneID 42212) [DRSC14788]: Wolbachia per cell robust z, rep 1 = 0.093; Wolbachia per cell robust z, rep 2 = -0.567; Wolbachia per cell robust z, rep 3 = 0.5; Outcome = inactive
CG15865 (GeneID 32641) [DRSC19733]: Wolbachia per cell robust z, rep 1 = -0.0104; Wolbachia per cell robust z, rep 2 = 0.816; Wolbachia per cell robust z, rep 3 = -0.891; Outcome = inactive
Atg12 (GeneID 39383) [DRSC09803]: Wolbachia per cell robust z, rep 1 = 0.288; Wolbachia per cell robust z, rep 2 = -0.773; Wolbachia per cell robust z, rep 3 = -6.93; Outcome = inactive
dachs (GeneID 34179) [DRSC01026]: Wolbachia per cell robust z, rep 1 = 0.827; Wolbachia per cell robust z, rep 2 = -2.84; Wolbachia per cell robust z, rep 3 = 0.685; Outcome = inactive
dachs (GeneID 34179) [DRSC02072]: Wolbachia per cell robust z, rep 1 = 0.345; Wolbachia per cell robust z, rep 2 = 1.13; Wolbachia per cell robust z, rep 3 = 1.93; Outcome = inactive
dachs (GeneID 34179) [DRSC02191]: Wolbachia per cell robust z, rep 1 = -0.323; Wolbachia per cell robust z, rep 2 = -0.196; Wolbachia per cell robust z, rep 3 = -2.62; Outcome = inactive
dachs (GeneID 34179) [DRSC26121]: Wolbachia per cell robust z, rep 1 = -1.12; Wolbachia per cell robust z, rep 2 = -0.179; Wolbachia per cell robust z, rep 3 = -0.814; Outcome = inactive
dachs (GeneID 34179) [DRSC28403]: Wolbachia per cell robust z, rep 1 = -0.0631; Wolbachia per cell robust z, rep 2 = 0.944; Wolbachia per cell robust z, rep 3 = 0.264; Outcome = inactive
par-1 (GeneID 2768852) [DRSC05792]: Wolbachia per cell robust z, rep 1 = -0.656; Wolbachia per cell robust z, rep 2 = 1.73; Wolbachia per cell robust z, rep 3 = 3.03; Outcome = active
par-1 (GeneID 2768852) [DRSC06098]: Wolbachia per cell robust z, rep 1 = 0.736; Wolbachia per cell robust z, rep 2 = 0.799; Wolbachia per cell robust z, rep 3 = 0.909; Outcome = inactive
par-1 (GeneID 2768852) [DRSC06616]: Wolbachia per cell robust z, rep 1 = 0.0141; Wolbachia per cell robust z, rep 2 = 1.06; Wolbachia per cell robust z, rep 3 = 0.152; Outcome = inactive
par-1 (GeneID 2768852) [DRSC07660]: Wolbachia per cell robust z, rep 1 = 1.47; Wolbachia per cell robust z, rep 2 = 0.935; Wolbachia per cell robust z, rep 3 = 1.09; Outcome = inactive
par-1 (GeneID 2768852) [DRSC07661]: Wolbachia per cell robust z, rep 1 = 0.46; Wolbachia per cell robust z, rep 2 = 0.466; Wolbachia per cell robust z, rep 3 = -0.813; Outcome = inactive
par-1 (GeneID 2768852) [DRSC36775]: Wolbachia per cell robust z, rep 1 = -0.122; Wolbachia per cell robust z, rep 2 = -0.27; Wolbachia per cell robust z, rep 3 = 0.263; Outcome = inactive

2 entries from above, set out differently:
par-1 (GeneID 2768852) [DRSC07660]
- Wolbachia per cell robust z, rep 1: 1.47
- Wolbachia per cell robust z, rep 2: 0.935
- Wolbachia per cell robust z, rep 3: 1.09
- Outcome: inactive

par-1 (GeneID 2768852) [DRSC07661]
- Wolbachia per cell robust z, rep 1: 0.46
- Wolbachia per cell robust z, rep 2: 0.466
- Wolbachia per cell robust z, rep 3: -0.813
- Outcome: inactive
